Experimental data: PubChem BioAssay AID504761 (Drosophila RNAi Screening Center, 2011)
In all, the deposit lists about 22,000 reagents; shown is an unselected part of those with a known target gene and a result. Over the whole deposit, 116 (0.52%) were called active. 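Calls depend on retest data that are not deposited; infection was ranked per plate without normalising between plates; the unit of the infection score is not given.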 Unmarked entries are inactive. Further read-outs or replicates are left out here. Not stated in the record: the amount of reagent, the time to read-out.

Aim: 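Genome-wide fly cell screen for genes dengue virus requires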 (primary screen)
System: D.Mel-2 cells from Drosophila
Knock-down reagent: long dsRNA against Drosophila genes
Challenge: infection with dengue virus type 2; dose and infection time not stated
Detection: 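Per well on two replicate plates, imaging gave the percent of cells positive for viral envelope protein, ranked by infection, and a nuclear count of cells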
Scale: infection score: higher = more virus-infected cells
Hit rule: 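Low infection ranks in the two replicates (chance level up to 0.065) followed by a retest with a 1.5-fold or larger significant decrease, p below 0.05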
Calls: active = confirmed: knock-down lowers infection; inactive = not picked or not confirmed

After knock-down of c12.2 (GeneID 53434) [DRSC18751], the record shows infection score, replicate 1 = 2.53. Knock-down of c12.2 (GeneID 53434) [DRSC26390] came out at: infection score, replicate 1 = 0.81. CG15814 (GeneID 32765) [DRSC19730] scored infection score, replicate 1 = 2.59. CG7142 (GeneID 42194) [DRSC16204] gave infection score, replicate 1 = 2.47. CG7142 (GeneID 42194) [DRSC26968] showed infection score, replicate 1 = 19.2. After knock-down of Fem-1 (GeneID 37344) [DRSC07322] the results were infection score, replicate 1 = 2.27.

Depletion of Fem-1 (GeneID 37344) [DRSC27014] came out at: infection score, replicate 1 = 6.8. For Sap30 (GeneID 32664) [DRSC19916] the deposit lists infection score, replicate 1 = 11.5. For CG13609 (GeneID 42883) [DRSC14612], the entry reads infection score, replicate 1 = 3.31. Knock-down of CG13609 (GeneID 42883) [DRSC22843] resulted in: infection score, replicate 1 = 0.5. CG1265 (GeneID 38517) [DRSC08288] scored infection score, replicate 1 = 3.78. Knock-down of GABA-B-R2 (GeneID 42561) [DRSC14134] resulted in: infection score, replicate 1 = 2.65.

GABA-B-R2 (GeneID 42561) [DRSC28127] scored infection score, replicate 1 = 3.59. Against Fer2LCH (GeneID 44965) [DRSC16672], the entry reads infection score, replicate 1 = 5.99. Knock-down of Fer2LCH (GeneID 44965) [DRSC29169] gave: infection score, replicate 1 = 20.9.
